The record followed here is patent US20230181697A1 (published 2023).

For this experiment, the target named is T1, S1-protein variant of SARS-CoV-2 containing a single mutation (D614G) (SARS-CoV-2, UniProt P0DTC2 16-685).
T1 construct: domain: S1 subunit
As to the kind of experiment: ELISA, S1 D614G immobilized, rhSP-D titrated (FIG. 4E).

B1: full length recombinant human rhSP-D produced in human cell line GlycoExpress (GEX), variant Met11, (other)
chain: AEMKTYSHRTMPSACTLVMCSSVESGLPGRDGRDGREGPRGEKGDPGLPGAAGQAGMPGQAGPVGPKGDNGSVGEPGPKGDTGPSGPPGPPGVPGPAGREGPLGKQGNIGPQGKPGPKGEAGPKGEVGAPGMQGSAGARGLAGPKGERGVPGERGVPGNTGAAGSAGAMGPQGSPGARGPPGLKGDKGIPGDKGAKGESGLPDVASLRQQVEALQGQVQHLQAAFSQYKKVELFPNGQSVGEKIFKTAGFVKPFTEAQLLCTQAGGQLASPRSAAENAALQQLVVAKNEAAFLSMTDSKTEGKFTYPTGESLVYSNWAPGEPNDDGGSEDCVEIFTNGKWNDRACGEKRLVVCEF
Turning to B1, the binding result is listed as “binds”.
